Where “and” joins values, the source holds several entries; their conditions need not be identical. Equal values may be shown once. Only a part is listed here, and it is no random draw. Calls of active or inactive are those of the source. Calls come from the whole dose curve; as a rule, active = well fitted inhibition curve with a large enough effect; inconclusive = small, poorly fitted or top-dose-only effect; inactive = flat fitted curve, though single readings scatter.
What follows are compounds tested against pyruvate kinase (Trypanosoma brucei) (UniProt Q57TT1) (assay: qHTS of Trypanosoma Brucei Inhibitors). Details: TbPYK enzyme, Kinase-Glo Plus ATP luminescence, 45 min; at 76.8 µM (top of the series) unless noted.
% is set by controls: 0 for no effect and ±100 for the full control effect.
Note: nearly all actives have a fitted effect of over 50% in size.

| Compound | activity, negative = inhibition |
| --- | --- |
| CCOP(=O)(Nc1cccc2ccccc12)OCC | inactive: -27.1% |
| COc1cc(C2NCCC3(OCCO3)C2(C)C)cc(OC)c1OC (stereo unspecified) | inactive: -3.52% |
| CCCOP(=S)(Nc1nc(N)cc(=O)[nH]1)OCCC | inactive: -4.02% |
| Cc1ccc(NCCc2c([N+](=O)[O-])cc([N+](=O)[O-])cc2[N+](=O)[O-])cc1 | inactive: -0.595% |
| Nc1cccc2c([As](=O)(O)O)cccc12 | inactive: -5.63% |
| O=[As](O)(c1cccc(O)c1)c1cccc(O)c1 | inactive: 21.5% |
| Cc1cccc(OCC(=O)OC2CN3CCC2CC3)c1 (stereo unspecified) | inactive: -3% |
| CS(=O)(=O)c1ccc(Cl)c(NC(=O)COC(=O)C(O)(c2ccccc2)c2ccccc2)c1 | inactive: -9.47% |
| COc1cc(C(=O)NCC2(N3CCOCC3)CCCCC2)cc(Cl)c1OC(C)C | inactive: -0.833% |
| O=[As](O)(O)c1cccnc1 | inactive: 3.74% |
| O=C(OC1CN2CCC1CC2)c1ccc(Cl)cc1 (stereo unspecified) | inactive: 1.19% |
| CN(C)C(=O)c1cc([N+](=O)[O-])cc2c1-c1c(cc([N+](=O)[O-])cc1[N+](=O)[O-])C2=O | inactive: -3.05% |
| O=[N+]([O-])c1ccc2c(c1)nnn2O | inactive: 1.1% |
| CN(C(=O)Cc1ccccc1)[C@@H]1CC[C@]2(CCCO2)C[C@H]1N1CCCC1 | inactive: 1.93% |
| CCOP1(=S)c2c(C)nn(CCC#N)c2N=C(c2ccc(F)cc2)N1C (stereo unspecified) | inactive: -6% |
| N#CCCN(C(=O)COC(=O)C(O)(c1ccccc1)c1ccccc1)c1ccc(F)cc1 | inactive: 0.225% |
| NC(=O)Nc1ccc([As](=O)(O)O)cc1 | inactive: 2.46% and inactive: -1.55% |
| Nc1ccccc1[As](=O)(O)c1ccccc1 | inactive: 5.49% |
| O=C(O)COc1ccc([As](=O)(O)O)cc1[N+](=O)[O-] | inactive: 5.65% |
| O=P(Nc1nccs1)(Oc1ccccc1)Oc1ccccc1 | inactive: 2.24% |
| CCOP1(=S)c2c(C)nn(CCC#N)c2N=C(c2ccccc2F)N1C (stereo unspecified) | inactive: 1.24% |
| O=P1(Nc2ccc(Br)cn2)COc2ccccc2OC1 | inactive: 0.681% |
| NS(=O)(=O)c1cccc(NC(=O)COC(=O)C(O)(c2ccccc2)c2ccccc2)c1 | inactive: -9.08% |
| Cc1ccc(OCC(=O)OC2CN3CCC2CC3)cc1 (stereo unspecified) | inactive: 5.81% |
| O=[As](O)(c1cccs1)c1cccs1 | inactive: -0.492% |
| Nc1cccc([As](=O)(O)c2ccccc2)c1 | inactive: -2.19% |

| Compound | activity, negative = inhibition |
| --- | --- |
| O=P1(Nc2ncccn2)COc2ccccc2OC1 | inactive: 2.43% |
| Cc1ccc(S(=O)(=O)N(CCCN)CCCc2c(C)nc(N)[nH]c2=O)cc1 | inactive: 7.78% |
| CCCC1OP(=O)(Nc2ccccc2)OCC1CC (stereo unspecified) | inactive: -5.54% |
| O=C(/C=C/c1ccccc1)OC1CN2CCC1CC2 (stereo unspecified) | inactive: -5.61% |
| CN(C)C1(CNC(=O)c2ccc(S(C)(=O)=O)cc2)CCCCC1 | inactive: -6.05% |
| CC1CCC(C(C)C)C(OP(=O)(Nc2ccccn2)c2ccccc2)C1 (stereo unspecified) | inactive: 3.51% |
| Cc1ccc(C(=O)OC2CN3CCC2CC3)cc1 (stereo unspecified) | inactive: 5.19% |
| Cc1nn(-c2ccccc2)c2c1P(=O)(N1CCOCC1)N(C)C(c1ccccc1)=N2 (stereo unspecified) | inactive: -1.61% |
| CC1(CBr)Cn2c(nc3ccccc3c2=O)S1 (stereo unspecified) | inactive: 1.59% |
| CC(C)/C=N\N=C(\N)N[N+](=O)[O-] | inactive: -3.85% |
| COc1ccccc1CNC(=O)COC(=O)C(O)(c1ccccc1)c1ccccc1 | inactive: 4.42% |
| CC(C)(C)C(=O)NC(Sc1ncccn1)C(Cl)(Cl)Cl (stereo unspecified) | inactive: 1.2% |
| O=P1(N(CCCl)CCCl)NCCC(C(F)(F)F)O1 (stereo unspecified) | inactive: -0.327% |
| CN(CCCl)Cc1cc(Cl)c(NC2=NCCN2)c(Cl)c1 | inactive: 5.94% |
| CCOP(=O)(Nc1ccc(C)cn1)OCC | inactive: 4.98% |
| CCOP(=O)(NC(=NC(C)c1ccccc1)NC(C)c1ccccc1)OCC (stereo unspecified) | inactive: -7.61% |
| O=P1(Nc2ccccn2)COc2ccccc2OC1 | inactive: -7.75% |
| CCC1=CC2Cc3nc4ccc(Cl)cc4c(N)c3C(C1)C2 (stereo unspecified) | inactive: -6.23% |
| CCC(C)N(CC(C)C)C(=S)SC(NC(C)=O)C(Cl)(Cl)Cl (stereo unspecified) | inactive: -14% |
| CCOC(=O)c1ccc(NC(=O)C(C)(CCl)SC)cc1 (stereo unspecified) | inactive: 1.3% |
| CSc1ccc(Nc2c([N+](=O)[O-])cc([N+](=O)[O-])cc2[N+](=O)[O-])cc1 | inactive: -9.4% |
| O=C(OC1CN2CCC1CC2)c1cccc([N+](=O)[O-])c1 (stereo unspecified) | inactive: 4.39% |
| O=C(Nc1ccncc1[N+](=O)[O-])c1ccc([N+](=O)[O-])cc1[N+](=O)[O-] | inactive: -1.29% |
| O=C(COc1ccccc1)OC1CN2CCC1CC2 (stereo unspecified) | inactive: 1.33% |
| O=C(O)C(=O)c1ccc(N(CCCl)CCCl)cc1 | inactive: -12.7% |
| COC(=O)C1(C)COP(=O)(N2CCCC2)OC1 (stereo unspecified) | inactive: 0.0613% |

| Compound | activity, negative = inhibition |
| --- | --- |
| COP1(=S)c2c(C)nn(CCC#N)c2N=C(c2ccc(F)cc2)N1C (stereo unspecified) | inactive: -3.98% |
| O=[N+]([O-])c1ccc(Nc2ccc(Oc3ccc([N+](=O)[O-])cc3[N+](=O)[O-])cc2)c([N+](=O)[O-])c1 | inactive: -5.11% |
| O=P(Nc1ccccn1)(c1cccc2ccccc12)c1cccc2ccccc12 | inactive: -4.66% |
| Cc1cc(SC(NC=O)C(Cl)(Cl)Cl)ncn1 (stereo unspecified) | inactive: -19.7% |
| CCOC(=O)Nc1cccc([As](=O)(O)O)c1 | inactive: -14.2% |
| CCCCOc1ccc(C(=O)NCC2(N3CCCCC3)CCCCC2)cc1OC | inactive: -1.48% |
| COP(=O)(OC)N1CC1c1ccccc1 (stereo unspecified) | inactive: 4.35% |
| CC1CCNP(=O)(N(CCCl)CCCl)O1 (stereo unspecified) | inactive: 2.16% |
| CCOC(=O)Nc1ccc([As](=O)(O)O)c(O)c1 | inactive: 6.21% |
| O=C(O)C(O)c1ccc(N(CCCl)CCCl)cc1 (stereo unspecified) | inactive: -6.49% |
| O=[N+]([O-])c1cc([N+](=O)[O-])c(-c2ccn[nH]2)s1 | inactive: -0.151% |
| O=C(OC1CN2CCC1CC2)c1cccc2[nH]cnc12 (stereo unspecified) | inactive: 0.493% |
| CC(C)NC(=O)NP(=O)(Oc1ccccc1)Oc1ccccc1 | inactive: -14.6% |
| CC(C)c1ccc(OP(=O)(Nc2ccccn2)Oc2ccccc2F)cc1 (stereo unspecified) | inactive: -0.619% |
| COC(=O)C1(C)COP(=O)(N2CCCCCC2)OC1 (stereo unspecified) | inactive: -7.96% |
| ClCCSc1nnc(-c2cccnc2)o1 | inactive: 3.24% |
| Cc1ccc2nc3c(c(C)c2c1)CC(C(Cl)Cl)S3 (stereo unspecified) | inactive: -17% |
| [N-]=[N+]=NC1CCCCC1NC(=O)c1cc([N+](=O)[O-])cc([N+](=O)[O-])c1 (stereo unspecified) | inactive: 3.05% |
| Cc1ccc(OP(=O)(Nc2ccc([N+](=O)[O-])cn2)Oc2ccc(C)cc2)cc1 | inactive: 0.603% |
| COc1cc(C(=O)NCC2(N3CCOCC3)CCCCC2)ccc1OCC(C)C | inactive: -7.26% |
| O=[N+]([O-])c1ccc(-c2cc([N+](=O)[O-])c(O)c([N+](=O)[O-])c2)cc1 | inactive: -14% |
| O=[As](O)(c1ccc(O)cc1)c1ccccc1O | inactive: 24.8% |
| C[As](=O)(O)c1cccc(C(=O)O)c1 | inactive: 2.03% |
| COc1ccc(N/C(=N/P(=O)(N2CCOCC2)N2CCOCC2)N2CCOCC2)cc1 | inactive: 0.364% |
| O=[N+]([O-])c1cc(Oc2ccc([N+](=O)[O-])cc2C(F)(F)F)cc([N+](=O)[O-])c1 | inactive: 4.62% |
| COc1cc(I)ccc1[As](=O)(O)O | inactive: -8.85% |

| Compound | activity, negative = inhibition |
| --- | --- |
| COc1ccc2nc(NP(=O)(c3ccccc3)c3ccccc3)sc2c1 | inactive: -4.35% |
| O=P1(N(CCCl)CCCl)Nc2ccccc2N1 | inactive: -0.437% |
| O=P1(N(CCCl)CCCl)OCCCN1CCCl (stereo unspecified) | inactive: 3.71% |
| Cc1cc(=O)[nH]c(N[N+](=O)[O-])n1 | inactive: -5.62% |
| O=C(OC1CN2CCC1CC2)C12CC3CC(CC(C3)C1)C2 (stereo unspecified) | inactive: 0.686% |
| Cc1c2c(nc3ccccc13)SC(C(Cl)Cl)C2 (stereo unspecified) | inactive: -5.47% |
| O=[N+]([O-])C1C(O)C(O)C([N+](=O)[O-])C(O)C1O (stereo unspecified) | inactive: -4.11% |
| CC(C)CC(=O)NC(Sc1ccc(Cl)cc1)C(Cl)(Cl)Cl (stereo unspecified) | inactive: -1.94% |
| Nc1cc(N)c2nonc2c1[N+](=O)[O-] | inactive: -13.5% |
| O=C(NC(Sc1ccncn1)C(Cl)(Cl)Cl)c1ccccc1 (stereo unspecified) | inactive: 0.542% |
| Oc1ccccc1CNc1ccccn1 | inactive: -6.95% |
| Cc1ccc(OP(=O)(Nc2nccs2)Oc2ccc(C)cc2)cc1 | inactive: -2.42% |
| COc1ccccc1OP(=O)(Nc1ccc(C)cn1)Oc1ccccc1OC | inactive: 3.66% |
| Clc1ccc(Cl)c(NC2=NCC(CBr)S2)c1 (stereo unspecified) | inactive: -3.94% |
| CN1CCCC(OC(=O)C(c2ccccc2)c2ccccc2)C1 (stereo unspecified) | inactive: 1.17% |
| NC(=O)c1cc([N+](=O)[O-])cc([N+](=O)[O-])c1N | inactive: -4.05% |
| Cc1ccc(N/C(=N/P(=O)(N2CCOCC2)N2CCOCC2)N2CCOCC2)cc1 | inactive: -18.7% |
| CCN(N=Nc1nonc1N)c1nonc1N | inactive: -0.0313% |
| Nc1cccc2ccc([As](=O)(O)O)cc12 | inactive: -12.3% |
| Cc1ccc(NP(=O)(Oc2ccccc2F)Oc2ccccc2F)nc1 | inactive: -0.612% |
| CCOP(=O)(Nc1ccccc1)OCC | inactive: -10.4% |
| CCCC1OP(N)(=O)OCC1CC (stereo unspecified) | inactive: 10.1% |
| O=C(O)c1ccccc1[As](=O)(O)O | inactive: 2.42% |

— PubChem BioAssay AID624173 (National Center for Advancing Translational Sciences (NCATS), 2012)
